# From PubChem BioAssay AID651602 (The Scripps Research Institute Molecular Screening Center, 2012)
# Only a part is listed here, and it is no random draw. Activity calls are given as the source filed them. Cut-off read from the data, not from the text of the source: active = inhibition above about 11%; inactive = the rest.
# Assay: growth loss of phage-infected E. coli, primary screen, RecBCD inhibitor project, absorbance, with phage, HTS (AID 651602)
# Conditions: at 11.9 µM, hits give high values
row,Structure (SMILES),inhibition
1,C(Cc1nn[nH]n1)Cc1nn[nH]n1,inactive: 1.03%
2,O=C(OC1CN2CCC1CC2)c1cccc(Cl)c1 (stereo unspecified),inactive: 3.28%
3,Nc1ccc(CCCCOc2ccccc2)cc1,inactive: 3.25%
4,COc1ccc(N)c([N+](=O)[O-])c1[N+](=O)[O-],inactive: 4.9%
5,CN(C)C1(CNC(=O)c2ccc(Cl)c(S(N)(=O)=O)c2)CCCCC1,inactive: 0.24%
6,O=P(Nc1ccccn1)(c1ccc(Br)cc1)c1ccc(Br)cc1,inactive: 4.58%
7,O=P(Nc1nc2ccccc2s1)(c1ccccc1)c1ccccc1,inactive: -0.6%
8,C[C@H]1OP(=O)(Oc2ccccc2)[C@H](O)[C@H](O)[C@H]1N=[N+]=[N-] (stereo partly specified),inactive: 2.18%
9,O=P(Nc1nccs1)(c1ccccc1)c1ccccc1,inactive: 2.12%
10,CC(C)C(=O)NC(Sc1ccccc1)C(Cl)(Cl)Cl (stereo unspecified),inactive: 1.82%
11,c1nnnn1CCn1cnnn1,inactive: 3.17%
12,N#C/C(=C\c1ccc(N(CCBr)CCBr)cc1)C(N)=O,inactive: 3.02%
13,CC(=O)c1ccc(N2CC2c2ccncc2)cc1 (stereo unspecified),inactive: 2.3%
14,COC(=O)C1(C)COP(=O)(NCc2ccccc2)OC1 (stereo unspecified),inactive: 3.42%
15,Cc1ccccc1CN(C)C(=O)COC(=O)C(O)(c1ccccc1)c1ccccc1,inactive: 1.31%
16,C[C@@H]1C=CCP(=O)(Oc2ccccc2)O1 (stereo partly specified),inactive: 2.39%
17,C[C@H]1OP(=O)(Oc2ccccc2)C[C@@H]2O[C@@H]21 (stereo partly specified),inactive: -0.4%
18,CC(=O)Nc1ccc([As](=O)(O)O)c(O)c1,inactive: -1.99%
19,CC(=O)Nc1ccc(Oc2c([N+](=O)[O-])cc([N+](=O)[O-])cc2[N+](=O)[O-])cc1,inactive: 2.89%
20,O=P1(Nc2nc3ccc(Cl)cc3s2)COc2ccccc2O1 (stereo unspecified),inactive: 1.85%
21,CCOc1ccc(C2=NCC(CBr)S2)cc1 (stereo unspecified),inactive: 5.16%
22,CCc1cc(O)c([N+](=O)[O-])c(C)c1[N+](=O)[O-],inactive: 2.09%
23,CC(C)(C)C(=O)NC(Sc1ccccc1)C(Cl)(Cl)Cl (stereo unspecified),inactive: 2.03%
24,COC(=O)c1cc2c(s1)N=C(c1ccccc1)N(C)P2(=O)N1CCOCC1 (stereo unspecified),inactive: 2.01%
25,CC(=O)NC(SC(=S)N(CC(C)C)CC(C)C)C(Cl)(Cl)Cl (stereo unspecified),inactive: 1.4%
26,Cc1ccc(OP(=O)(Nc2ccccn2)Oc2ccc(C)cc2)cc1,inactive: 1.39%

row,Structure (SMILES),inhibition
1,O=C(OC1CN2CCC1CC2)c1ccccc1 (stereo unspecified),inactive: 1.67%
2,CCC(=O)N1C2C3N(C(=O)CC)C1C1N(C(=O)CC)C(C(N1C(=O)CC)N3C(=O)CC)N2C(=O)CC,inactive: 3.74%
3,Cc1ccccc1OP(=O)(Nc1ccccn1)Oc1ccccc1C,inactive: -0.31%
4,CC(NC(=O)COC(=O)C(O)(c1ccccc1)c1ccccc1)c1ccccc1 (stereo unspecified),inactive: 6.11%
5,CN(C)C(=O)Oc1noc2ccccc12,inactive: 2.77%
6,O=c1c2cc([N+](=O)[O-])ccc2[nH]c2c([N+](=O)[O-])cc([N+](=O)[O-])cc12,inactive: 6.72%
7,O=C(NC1CCS(=O)(=O)C1)NP(=S)(Oc1ccccc1)Oc1ccccc1 (stereo unspecified),inactive: 2.48%
8,CCNC(=S)/N=C(\N)N[N+](=O)[O-],inactive: 3.96%
9,c1ccc(-c2nn[nH]n2)c(-c2nn[nH]n2)c1,inactive: 3.96%
10,Cc1ccc(NP(=O)(Oc2cccc(C)c2)Oc2cccc(C)c2)nc1,inactive: -1.32%
11,O=P1(N(CCCl)CCCl)OCCC2CCCCN21 (stereo unspecified),inactive: 2.22%
12,NC(=O)Nc1ccc([As](=O)(O)O)cc1,inactive: 0.16%
13,CN(C)C(=O)c1cc([N+](=O)[O-])cc2c1-c1c(cc([N+](=O)[O-])cc1[N+](=O)[O-])C2=O,inactive: 0.62%
14,O=[N+]([O-])c1ccc2c(c1)nnn2O,inactive: 2.97%
15,CN(C(=O)Cc1ccc(Cl)c(Cl)c1)[C@H]1CC[C@@]2(CCCO2)C[C@@H]1N1CCCC1,inactive: 5.32%
16,N#CCCN(C(=O)COC(=O)C(O)(c1ccccc1)c1ccccc1)c1ccc(F)cc1,inactive: 0.77%
17,CN(C(=O)Cc1ccccc1)[C@@H]1CC[C@]2(CCCO2)C[C@H]1N1CCCC1,inactive: 1.78%
18,CCOP1(=S)c2c(C)nn(CCC#N)c2N=C(c2ccc(F)cc2)N1C (stereo unspecified),inactive: -4.7%
19,CCOP1(=S)c2c(C)nn(CCC#N)c2N=C(c2ccccc2F)N1C (stereo unspecified),inactive: 1.56%
20,O=P(Nc1nccs1)(Oc1ccccc1)Oc1ccccc1,inactive: 2.17%
21,O=C(O)COc1ccc([As](=O)(O)O)cc1[N+](=O)[O-],inactive: 1.83%
22,Nc1ccccc1[As](=O)(O)c1ccccc1,inactive: 2.92%
23,CCCOP(=S)(Nc1nc(N)cc(=O)[nH]1)OCCC,inactive: 3.65%
24,Cc1ccc(NCCc2c([N+](=O)[O-])cc([N+](=O)[O-])cc2[N+](=O)[O-])cc1,inactive: 0.87%
25,Nc1cccc2c([As](=O)(O)O)cccc12,inactive: 1.43%
